Results of unrelated studies side by side (data: NIAID ChemDB).

Shared fields: growth or infection tests; organism: HIV-1; read-out: EC50

Conditions beyond the fields shown may differ between rows.

smiles,method,cells,setting,strain,changes,result
CCCc1cc(=O)oc2c3c(c4c(c12)OC(C)(C)C=C4)O[C@@H](C)[C@H](C)[C@@H]3O,RT activity,PBMC,,CLADE C,,0.09 µM
C#C[C@]1(CO)O[C@@H](n2cnc3c(N)nc(F)nc32)C[C@@H]1O,fluorescence,MT4-GFP,,Clinical isolate,L74I/M184I,0.00444 µM
Cc1ccnc2c1NC(=O)c1cccnc1N2C1CC1,β-galactosidase,MAGI,,NNRTI-resistant (RT K103N),RT-K103N,5.8 µM
CCN[C@H]1CO[C@@H]2OCC[C@H](OC(=O)N[C@@H](Cc3cccc(OC)c3)[C@H](O)CN(CC(C)C)S(=O)(=O)c3ccc4nc(NC(C)C)sc4c3)[C@@H]21,p24 / luminescence,MT-4,,NL4-3,L10F V32I L33F M46L I54M A71V,0.0069 µM
CC(=O)N1CCC(C(=O)N(CCCN2CCC(Cc3ccc(C(N)=O)cc3)CC2)c2ccc(C)c(Cl)c2)CC1,luciferase,U87 (CD4+ CXCR4+) + U87,,X4 subtype B_3 recombinant,,>19 µM
Cc1ccnc2c1NC(=O)c1cccnc1N2C1CC1,XTT,CEM + CEM-SS,,UC38-resistant (RT Y181C),RT-Y181C,1.9 µM
CC[C@@H](C)[C@H](C(=O)O)N1C[C@H](CN2CCC(c3cc(Cc4ccc(-c5ccccc5)cc4)nn3CC)CC2)[C@@H](c2cccc(F)c2)C1,β-galactosidase,HeLa,50% human serum,BaL,,<0.3 µM
Cc1cn([C@H]2C[C@H](N=[N+]=[N-])[C@@H](CO)O2)c(=O)[nH]c1=O,XTT,CEM + CEM-SS,,HEPT-resistant (RT P236L),RT-P236L,0.01 µM
C/C=C/CSc1cc(NC(=S)c2ccsc2C)ccc1Cl,cytopathic effect / XTT,MT-2,,IIIB,,0.07 µM
CC[C@H](C)[C@H](C(=O)O)N1C[C@H](CN2CCC(c3cc(Cc4cc(C(F)(F)F)cc(C(F)(F)F)c4)nn3CC)CC2)[C@@H](c2cccc(F)c2)C1,β-galactosidase,HeLa,,BaL,,<0.011 µM
CCCc1cc(=O)oc2c3c(c4c(c12)OC(C)(C)C=C4)O[C@H](C)[C@@H](C)[C@@H]3O,XTT,CEM + CEM-SS,,E BPTU-resistant (RT Y181C),RT-Y181C,0.1 µM
CO[P@](=O)(c1cc(C)cc(/C=C/C#N)c1)c1c(C(N)=O)[nH]c2ccc(Cl)c(F)c12,,PBMC,,WT (BH10),,0.0004 µM
Cc1cn([C@H]2C[C@H](N=[N+]=[N-])[C@@H](CO)O2)c(=O)[nH]c1=O,cytopathic effect / XTT,PBMC,clinical isolate,CLADE E,,0.01 µM
COC(=O)N[C@H](C(=O)N[C@@H](Cc1ccccc1)[C@@H](O)CN(Cc1ccc(-c2ccccn2)cc1)NC(=O)[C@@H](NC(=O)OC)C(C)(C)C)C(C)(C)C,p24 / ELISA,MT-2,,IIIB,K112M K113E V128I M200I H219P I401T R409K D437N L441P R41K,0.0043 µM
C[C@H](Cn1cnc2c(N)ncnc21)OCP(=O)(O)O,luciferase,HeLa,,Recombinant,RT-M184V,0.5555 µM
Cc1ccnc2c1NC(=O)c1cccnc1N2C1CC1,cytopathic effect / XTT,CEM + CEM-SS,,NL4-3 (RT A98G),RT-A98G,0.2 µM
O=c1[nH]cnc2c1ncn2[C@H]1CC[C@@H](CO)O1,luciferase,HeLa,,Recombinant,RT-A62T V118I M184V,5.01 µM
Cc1c(C#N)cc(C(F)F)cc1Oc1c(C(F)(F)C(F)F)ncn(Cc2cc(F)c[nH]c2=O)c1=O,luminescence,CD4+ T-cell,,,,0.0384 µM
CN[C@H]1CO[C@@H]2OCC[C@H](OC(=O)N[C@@H](Cc3ccccc3)[C@H](O)CN(CC(C)C)S(=O)(=O)c3ccc4nc(NC5CC5)sc4c3)[C@@H]21,p24 / luminescence,MT-4,,NL4-3,L10I I54V K20R L24I V32I L33F M36I M46I I54M L63P K70Q V82I I84V L89M,0.038 µM
CCOP(=O)(COc1ccc(C[C@H](NC(=O)O[C@H]2CO[C@H]3OCC[C@H]32)[C@H](O)CN(CC(C)C)S(=O)(=O)c2ccc(OC)cc2)cc1)OCC,ATP,MT-2,,IIIB,ATV-P36 atazanavir-resistant mutant,0.0056 µM
CC(C)=CCN1Cc2cc(Cl)cc3[nH]c(=S)n(c23)C[C@@H]1C,plaque count,HT4 + HT4 LacZ-1,,RTMC (RT-Y181C),RT-D67N K70R Y181C T215Y K219Q,2.5 µM
Cc1occc1C(=S)Nc1ccc(Cl)c(/C=N/OC(C)(C)C)c1,cytopathic effect / XTT,AA5,,IIIB,,1.9 µM
COC(=O)N[C@H](C(=O)N[C@@H](Cc1ccccc1)[C@@H](O)CN(Cc1ccc(-c2ccccn2)cc1)NC(=O)[C@@H](NC(=O)OC)C(C)(C)C)C(C)(C)C,p24 / luminescence,MT-4,,NL4-3,L23I E34Q K43I M46I I50L G51A L63P A71V V82A T91A,>1 µM
Cc1ccnc2c1NC(=O)c1cccnc1N2C1CC1,ELISA,C8166,,IIIB,,0.0334 µM
Cc1ccc(S(=O)(=O)N(CC(C)C)C[C@@H](O)[C@H](Cc2ccccc2)NC(=O)O[C@H]2CO[C@H]3OCC[C@H]32)cc1,ATP,MT-2,,IIIB,ATV-P36 atazanavir-resistant mutant,0.0019 µM
CCn1nc(Cc2cc(F)cc(F)c2)cc1C1CCN(C[C@H]2CN([C@@H](C(=O)O)C(C)C)C[C@@H]2c2cccc(F)c2)CC1,β-galactosidase,HeLa,,BaL,,<0.011 µM
COc1ccc(S(=O)(=O)N(CC(C)C)C[C@@H](O)[C@H](Cc2ccccc2)NC(=O)O[C@H]2CCO[C@H]3OCC[C@H]32)cc1,p24 / luminescence,MT-4,,NL4-3,L10I I15V K20R L24I V32I M36I M46I L63P K70Q V82A I84V L89M,>1 µM
CC[C@H](C)[C@H](C(=O)O)N1C[C@H](CN2CCC(c3cc(Cc4cccc5ccccc45)nn3CC)CC2)[C@@H](c2cccc(F)c2)C1,β-galactosidase,HeLa,50% human serum,BaL,,<0.011 µM
O=S(=O)(c1ccccc1)c1ccccc1,cytopathic effect / XTT,CEM + CEM-SS,,UC10-resistant (RT Y181C K101E),RT-Y181C K101E,>114 µM
Cc1ccnc2c1NC(=O)c1cccnc1N2C1CC1,,MT-4,,,RT-D67N K70R T215Y K219Q Y181C,>3 µM
CCn1nc(Cc2ccc(OC(F)F)cc2)cc1C1CCN(C[C@H]2CN([C@@H](C(=O)O)C(C)(C)C)C[C@@H]2c2cccc(F)c2)CC1,β-galactosidase,HeLa,50% human serum,BaL,,<0.011 µM
Cn1c2ccccc2c2c1cc(C#N)c(=O)n2-c1ccc([N+](=O)[O-])cc1,luciferase,HeLa,,NNRTI-resistant,RT-K103N L100I,0.0828 µM
CC(C)CN(C[C@@H](O)[C@H](Cc1ccccc1)NC(=O)O[C@H]1CCOC1)S(=O)(=O)c1ccc(N)cc1,p24 / luminescence,MT-4,,NL4-3,L10I I15V K20R L24I V32I M36I M46I I54V I62V L63P K70Q V82A L88M,>1 µM

Repeating the final 3 entries:

smiles,method,cells,setting,strain,changes,result
CCn1nc(Cc2ccc(OC(F)F)cc2)cc1C1CCN(C[C@H]2CN([C@@H](C(=O)O)C(C)(C)C)C[C@@H]2c2cccc(F)c2)CC1,β-galactosidase,HeLa,50% human serum,BaL,,<0.011 µM
Cn1c2ccccc2c2c1cc(C#N)c(=O)n2-c1ccc([N+](=O)[O-])cc1,luciferase,HeLa,,NNRTI-resistant,RT-K103N L100I,0.0828 µM
CC(C)CN(C[C@@H](O)[C@H](Cc1ccccc1)NC(=O)O[C@H]1CCOC1)S(=O)(=O)c1ccc(N)cc1,p24 / luminescence,MT-4,,NL4-3,L10I I15V K20R L24I V32I M36I M46I I54V I62V L63P K70Q V82A L88M,>1 µM

ECn is the concentration giving n% inhibition of infection, replication or growth. An empty or dashed field is not shown.